Measurements as given in the supplement of paper PMC9931576.
Human monoclonal antibodies against the spike receptor-binding domain (heavy:light variable regions). IC50 against pseudoviruses bearing the spike of naturally observed variants; lower = stronger; >10 µg/ml means not reached at the top dose. No active / inactive call. The stated detection limit is 0.0005 µg/ml; values near or below 0.001 µg/ml lie at the floor of the assay.

B1: BD56-1865 (protein)
chain 1: EVQLVESGGGLVQPGRSLRLSCAASGFTFGDYAMHWVRQAAGKGLEWVSGLTYNGGVMDYAASVKGRFFISRDNAKNSLYLQMNSLRAEDTAFYFCAKDMGTYYDTLTGFYDDHKFFHYWGQGTLVTVSS
chain 2: DIVMTQSPDSLAVSLGERATINCKSSQSVLYSSNNKNNLAWYQQKPGQPPKLLIYWASTRESGVPDRFSGSGSGTDFTLTISSLQAEDVAVYYCQQYYSLPLTFGPGTKVDIK
B2: BD56-1885 (protein)
chain 1: QITLKESGPTLVKPTQTLTVTCTFSGFSLSSSGVGVGWIRQPPGKALEWLGIIYWDGDQRYSPSLKTRLTITTDTSKNQVILTMTNMDPVDTATYYCAHLVGGLWGFDPWGQGTLVTVSS
chain 2: QSVLTQPPSASGTPGQRVTISCSGSSSNIGSNYVCWYQQFPGTAPKLLMYNNNQRPSGVPDRFSGSKSGTSASLAISGLRSEDEADYYCAAWDDSLSDWLFGGGTKLTVL
B3: BD56-1870 (protein)
chain 1: EVQLVESGGGVVQPGRSLRLACGASDFTFSDSDMHWIRQPPGKGLDWVAVISSDGSGKFYADSVKGRFTISRDNSKNTLFLQMNSLRAEDTAVYYCAKQSNYDILTGGPFDSWGQGTLVTVSS
chain 2: DIQMTQSPSSLSASVGDRVTISCRASLGIRSSIAWYQQKPGKAPKLLLYAASRLETGVPSRFSGSGSGTDYTLTISSLQPEDFATYYCQQYYSAPPYTFGQGTKLEIK
B4: BD56-1892 (protein)
chain 1: QVQLVQSGAEVKKPGSSVKVSCKASGDSFSNYAISWVRQAPGQGLEWVGGIIPIFRTINYGQKFQGRVTITADASTNTVYMELTSLRSEDTAVYYCARDMDFFGSGSYLSGGMDVWGQGTTVTVSS
chain 2: DIQMTQSPSTLSASVGDRVIITCRASQSIRTDLNWYQVKPGRAPKLLIYGASSLQSGVPSRFSGSGSGTDFTLTISTLLPEDFATYYCQQSYSTLPVTFGQGTKVEIK
B5: BD56-1893 (protein)
chain 1: QVQLVQSGAEVKKPGSSVKVSCKASGGTFSNYAITWVRQAPGQGLEWMGGIIPLFGTTYYAQKFQGRVTITADESTNTAYMELSSLRSEGTAVYYCAGHPRGDCANGVCYPPNYSYYMDVWGKGTTVTVSS
chain 2: QSALTQPASVSGSPGQSITISCTGTNSDVGIYNLVSWYQQHPGKAPKLIIYDVSKRPSGVSNRFSGSKSGNTASLTISGLQAEDESDYYCCSYAGTSTFVFGTGTKVTVL
B6: BD56-1873 (protein)
chain 1: QVQLVQSGAEVKKPGSSVKVSCKASGGSFSRHSISWVRQAPGQGLEWMGRTIPIVEIVNYAQKFQGRFTITAEKSTSTVYMELNSLRVEDTAVYYCARETEATEDFGNPNWFDPWGQGTLVTVSS
chain 2: DIVMTQSPDSLAVSLGERATINCKSSQSVLYTSNSKNYLAWYQQKPGQPPKLLIYWASTRESGVPERFGGSGSGTDFTLTISSLQAEDVAVYYCLQYYGNPRTFGQGTKVEIK
B7: BD56-1889 (protein)
chain 1: QVQLVESGGGVVQPGRSLRLSCAASGFSFSTYGMHWVRQAPGKGLEWVALIWNDGSNKYHADSVKGRFTISRDNSKNTLYMQMNSLRAEDTAMYYCARDNGPYGDYGIDSWGQGTLVTVSS
chain 2: DIVMIQTPLSLAVTPGQPASISCKSSQSLLQINGKTYLFWYLQRPGQSPHLLIYEGSHRFSGVPDRFSGSGSGTDFTLKISRVEAEDVGVYYCMQSKHLPWTFGQGTKVEIK
B8: BD56-1890 (protein)
chain 1: QVQLVQSGAEVKKPGSSVKVSCKVSGGTFSSHALSWVRQAPGQGLEWMGTIIPILGITTYAQSFQGRVTITADKSTNTVYMDLNSLRSEDTAVFYCAKRPWPDELFFGDAGFNVWGQGTVVTVSS
chain 2: DIVMTQSPLSLPVTPGESASISCRSNQSLLHSNGYSYLDWYLQKPGQSPQLLIYLGSNRASGVPDRFSGSGSGTDFTLRISRVEAEDVGVYYCMQALQTGFTFGPGTKVDIK
B9: BD56-1879 (protein)
chain 1: QVQLVQSGAEVKKPGSSVKVSCKASGGSVRTDAIIWVRQAPGQGLEWMGRIIPLPGVTNYAQKIQGRVTITADTSTSTTYMELNSLRFDDSAVYYCARGASGKDAMDVWGQGTTVTVSS
chain 2: DIQMTQSPSTLSASVGDRVTITCRASQTINSWLAWYQQKPGKAPKLLIYDASTLESGVPSRFSGSGSGTEFTLTISSLQPDDFATYYCQQYHSYSPVTFGQGTKVEIK
B10: BD56-1878 (protein)
chain 1: QVQLVQSGAEVKKPGSSVKVSCKASGGTFSSYAITWVRQAPGQGLEWMGRIFPILNTANYALKFQGRVTITADKSTSTAYMELPSLRSEDTAVYYCARDGNNYDSSGLPAEYFQLWGQGTLVTVSS
chain 2: QSVLTQPPSVSGAPGQRVTISCTGSNSNIGAGYDVHWYQQLPGTAPKLLIYGNTNRPSGVPDRFSGSKSGTSASLAITGLQAEDEADYYCQSYDSSLSDSVFGGGTKLTVL
B11: BD56-1888 (protein)
chain 1: QVQLQESGPGLVKPSETLSLTCTVSGGSVSSGNSYWHWIRQSPGKGLEWVGYIYYSGGANYNPSLKSRVTISIDTSKNQFSLKVISVTTADTAVYYCAREPIVVPAALPPYGLDVWGQGTTVTVSS
chain 2: EIVLTQSPATLSLSPGERATLSCRASQSFNIYLAWYQQKPGQAPRLLIYDSSNRATGIPARFSGSGSGTDFTLTISSLEPEDFAVYYCLQRSNWPPLTFGGGTKVEIK
B12: BD56-1869 (protein)
chain 1: QVQLVQSGTEVKKPGSSVKVSCKASGGALNNHAISWVRQAPGQGLEWMGRIIPILSIPNYAQKFQGRVTITADKTTSTAYMELSSLRSDDTAVYYCARESYSYSSGVPGTAGSWFDPWGQGSLVIVSS
chain 2: DIQMTQSPPSLSASVGDRVTITCRASQSISTYLNWYQHKPGKPPKLLISAASSLQSGVPSRFSGSGSGTDFTLTISSLQLEDFATYYCQQSYNTLWTFGQGTKVEIK

target: SARS-CoV-2 Omicron BA.1 spike pseudovirus; assay: pseudovirus neutralization IC50; higher = weaker neutralization
Method: (§1)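 Single-round VSV luciferase pseudovirus mixed with antibody dilutions for 1 h and put on Huh-7 cells for about a day; IC50 from the dose curve.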

First: B1
Second: B2
The “pseudovirus neutralization IC50” value of the first is 1.8-fold lower: 0.109 µg/mL for the first, 0.195 µg/mL for the second.

Going from B3 to B4, the “pseudovirus neutralization IC50” value falls from > 10 µg/mL to 0.843 µg/mL.

Compared with B5, B6 is 2.8-fold higher in “pseudovirus neutralization IC50” value: 0.00753 µg/mL for the first, 0.0214 µg/mL for the second.

First: B7
Second: B8
The “pseudovirus neutralization IC50” value of the first is higher: > 10 µg/mL for the first, 0.0282 µg/mL for the second.

Compared with B9, B10 is lower in “pseudovirus neutralization IC50” value: > 10 µg/mL for the first, 0.0828 µg/mL for the second.

B11 and B12 are within 1.5-fold of each other in “pseudovirus neutralization IC50” value: 0.00187 µg/mL for the first, 0.00275 µg/mL for the second.

target: SARS-CoV-2 Omicron BA.2 spike pseudovirus; assay: as above
Method: as §1

Going from B1 to B2, the “pseudovirus neutralization IC50” value falls from 0.0805 µg/mL to 0.000197 µg/mL (410-fold).

First: B3
Second: B4
The “pseudovirus neutralization IC50” value of the first is higher: > 10 µg/mL for the first, 0.0476 µg/mL for the second.

B5 and B6 are within 1.5-fold of each other in “pseudovirus neutralization IC50” value: 0.00654 µg/mL for the first, 0.00698 µg/mL for the second.

First: B7
Second: B8
The “pseudovirus neutralization IC50” value of the first is higher: > 10 µg/mL for the first, 0.0066 µg/mL for the second.

Compared with B9, B10 is 3-fold higher in “pseudovirus neutralization IC50” value: 0.0246 µg/mL for the first, 0.0744 µg/mL for the second.

First: B11
Second: B12
The “pseudovirus neutralization IC50” value of the first is 7.1-fold lower: 0.000839 µg/mL for the first, 0.00597 µg/mL for the second.

target: SARS-CoV-2 Omicron BA.2.75 spike pseudovirus; assay: as above
Method: as §1

First: B1
Second: B2
The “pseudovirus neutralization IC50” value of the first is 3.1-fold higher: 0.0504 µg/mL for the first, 0.0161 µg/mL for the second.

First: B3
Second: B4
The “pseudovirus neutralization IC50” value of the first is higher: > 10 µg/mL for the first, 0.425 µg/mL for the second.

First: B5
Second: B6
The “pseudovirus neutralization IC50” value of the first is 1.7-fold lower: 0.00343 µg/mL for the first, 0.00593 µg/mL for the second.

First: B7
Second: B8
The “pseudovirus neutralization IC50” value of the first is higher: > 10 µg/mL for the first, 0.0115 µg/mL for the second.

Going from B9 to B10, the “pseudovirus neutralization IC50” value falls from > 10 µg/mL to 0.16 µg/mL.

Going from B11 to B12, the “pseudovirus neutralization IC50” value rises from 0.00083 µg/mL to 0.337 µg/mL (410-fold).

target: SARS-CoV-2 Omicron BA.5 spike pseudovirus; assay: as above
Method: as §1

Compared with B1, B2 is 1300-fold lower in “pseudovirus neutralization IC50” value: 1.78 µg/mL for the first, 0.00141 µg/mL for the second.

B3 and B4 cannot be ordered by “pseudovirus neutralization IC50” value: > 10 µg/mL for the first, > 10 µg/mL for the second.

B5 and B6 cannot be ordered by “pseudovirus neutralization IC50” value: > 10 µg/mL for the first, > 10 µg/mL for the second.

B7 and B8 cannot be ordered by “pseudovirus neutralization IC50” value: > 10 µg/mL for the first, > 10 µg/mL for the second.

First: B9
Second: B10
The “pseudovirus neutralization IC50” value of the first is lower: 4.97 µg/mL for the first, > 10 µg/mL for the second.

Compared with B11, B12 is higher in “pseudovirus neutralization IC50” value: 3.48 µg/mL for the first, > 10 µg/mL for the second.

target: SARS-CoV-2 Omicron BQ.1.1 spike pseudovirus; assay: as above
Method: as §1

B1 and B2 cannot be ordered by “pseudovirus neutralization IC50” value: > 10 µg/mL for the first, > 10 µg/mL for the second.

B3 and B4 cannot be ordered by “pseudovirus neutralization IC50” value: > 10 µg/mL for the first, > 10 µg/mL for the second.

B5 and B6 cannot be ordered by “pseudovirus neutralization IC50” value: > 10 µg/mL for the first, > 10 µg/mL for the second.

B7 and B8 cannot be ordered by “pseudovirus neutralization IC50” value: > 10 µg/mL for the first, > 10 µg/mL for the second.

B9 and B10 cannot be ordered by “pseudovirus neutralization IC50” value: > 10 µg/mL for the first, > 10 µg/mL for the second.

B11 and B12 cannot be ordered by “pseudovirus neutralization IC50” value: > 10 µg/mL for the first, > 10 µg/mL for the second.

target: SARS-CoV-2 Omicron XBB spike pseudovirus; assay: as above
Method: as §1

Compared with B1, B2 is 1.9-fold higher in “pseudovirus neutralization IC50” value: 4.1 µg/mL for the first, 7.7 µg/mL for the second.

B3 and B4 cannot be ordered by “pseudovirus neutralization IC50” value: > 10 µg/mL for the first, > 10 µg/mL for the second.

B5 and B6 cannot be ordered by “pseudovirus neutralization IC50” value: > 10 µg/mL for the first, > 10 µg/mL for the second.

B7 and B8 cannot be ordered by “pseudovirus neutralization IC50” value: > 10 µg/mL for the first, > 10 µg/mL for the second.

B9 and B10 cannot be ordered by “pseudovirus neutralization IC50” value: > 10 µg/mL for the first, > 10 µg/mL for the second.

Compared with B11, B12 is higher in “pseudovirus neutralization IC50” value: 0.454 µg/mL for the first, > 10 µg/mL for the second.

target: SARS-CoV-2 early D614G spike pseudovirus; assay: as above
Method: as §1

Compared with B1, B2 is 9.6-fold lower in “pseudovirus neutralization IC50” value: 0.109 µg/mL for the first, 0.0113 µg/mL for the second.

Going from B3 to B4, the “pseudovirus neutralization IC50” value falls from 0.423 µg/mL to 0.0478 µg/mL (8.8-fold).

Going from B5 to B6, the “pseudovirus neutralization IC50” value rises from 0.00352 µg/mL to 0.00697 µg/mL (2-fold).

Compared with B7, B8 is lower in “pseudovirus neutralization IC50” value: > 10 µg/mL for the first, 0.0135 µg/mL for the second.

Going from B9 to B10, the “pseudovirus neutralization IC50” value rises from 0.0021 µg/mL to 0.24 µg/mL (110-fold).

Compared with B11, B12 is 2.9-fold higher in “pseudovirus neutralization IC50” value: 0.00114 µg/mL for the first, 0.00332 µg/mL for the second.
